Compound potency records, mixed from different reports. Data source: NIAID ChemDB in PubChem.

All rows: tests in culture; species: Mycobacterium tuberculosis

Rows are shuffled and stem from different studies. MIC50, MIC90 and the like: level of inhibition, or share of isolates inhibited. Blank or dashed fields: not listed here. MIC bound: limit read from a one-dose screen. ECn: concentration that inhibits the pathogen or its effect by n%. Percent inhibition refers to the dose given; in toxicity tests it is the harm to the cells.

| SMILES | mutations | tested at | cells | read-out | method | strain | result |
|---|---|---|---|---|---|---|---|
| O=C(Nc1sc(-c2ccc(OCc3c(Cl)cccc3Cl)cc2)cc1C(=O)O)c1ccco1 | - | - | - | MIC | resazurin | H37Rv | 36.6 µM |
| CN(C)CCCn1cnc2cc(Cl)c(Cl)cc21 | - | - | - | MIC bound | resazurin | H37Rv | >6.25 µg/mL |
| O=C(Nc1sc(-c2ccc(OCc3c(Cl)cccc3Cl)cc2)cc1C(=O)O)c1ccccn1 | - | - | - | EC50 | resazurin | H37Rv | >128 µM |
| CN(C)CCNc1ccc2ncn3c4ccc(O)cc4c(=O)c1c23.Cl | - | - | - | MIC bound | BACTEC | H37Rv | >12.5 µg/mL |
| C=C1CCCC(C)(C)[C@@H]1CC/C(C)=C/CC/C(C)=C/CO | - | - | - | EC50 | - | - | >6.25 µg/mL |
| Cc1c2cc[n+](COC(=O)c3ccccc3)cc2c(C)c2c1[nH]c1ccccc12 | - | - | - | MIC bound | resazurin | H37Rv | <6.25 µg/mL |
| C=CCNc1sc(-c2ccc(OCc3c(Cl)cccc3Cl)cc2)cc1C(=O)O | - | - | - | EC50 | resazurin | H37Rv | 27.53 µM |
| CCCCCOc1ccc(N2C(=O)CCNC2=S)cc1 | - | - | - | MIC | - | H37Rv | 5 µg/mL |
| O=C(Nc1sc(-c2ccc(OCc3c(Cl)cccc3Cl)cc2)cc1C(=O)O)c1ccc(Cl)cc1 | - | - | - | MIC | resazurin | H37Rv | 3.7 µM |
| O=C(CCCCC(=O)Nc1ccc(C(=O)Nc2cc(C3=NCCN3)cc(C3=NCCN3)c2)cc1)Nc1ccc(C(=O)Nc2cc(C3=NCCN3)cc(C3=NCCN3)c2)cc1 | - | 6.25 µg/mL | - | inhibition | resazurin | H37Rv | 77% |
| CCOC(=O)c1[nH]c(C)c(/C=N/NC(=O)Cn2c(C)c(C(=O)OCC)c(C)c2-c2ccc(Cl)cc2)c1C | - | 6.25 µg/mL | - | inhibition | resazurin | H37Rv (ATCC 27294) | 57% |
| CC(C)NCC1CCc2cc(CO)c([N+](=O)[O-])cc2N1 | - | 12.5 µg/mL | - | inhibition | BACTEC | H37Rv | -30% |
| O=C1OCc2cc(N3CCN(C(=O)c4cccc(Cl)c4)CC3)ccc21 | - | - | - | MIC90 | turbidity | Wild type without biotin | >50 µM |
| COC(=O)/C=C(C)/C=C/C1OC(C)OCC1O | - | 12.5 µg/mL | - | inhibition | BACTEC | H37Rv | -11% |
| O=C1c2cc(I)ccc2-n2c1nc1ncccc1c2=O | - | - | - | MIC | - | TN1037RFLP:H (DRUG sensitive) | 0.06 µg/mL |
| O=C(c1cccc(Cl)c1)N1CCN(c2ccc(-c3ccccn3)cc2)CC1 | - | - | - | MIC50 | turbidity | Wild type without biotin | >50 µM |
| O=C(Nc1sc(-c2ccc(OCc3c(Cl)cccc3Cl)cc2)cc1C(=O)O)c1ccccc1F | - | - | - | MIC | resazurin | H37Rv | 48.4 µM |
| COC(=O)[C@@]1(C)CCC[C@@]2(C)c3cc(Br)c(C(C)C)cc3CC[C@H]21 | - | 12.5 µg/mL | - | inhibition | BACTEC | H37Rv | 12% |
| Cc1nc2ccc(Br)cc2c2nc3ccccc3n12 | - | - | - | MIC99 | resazurin | H37Rv | 12.5 µg/mL |
| O=C1c2c(Cl)cccc2-n2c1nc1ccccc1c2=O | - | - | - | MIC | - | H37Rv | 0.5 µg/mL |
| CCCCCNc1sc(-c2ccc(OCc3c(Cl)cccc3Cl)cc2)cc1C(=O)O | - | - | - | MIC | resazurin | H37Rv | 15.1 µM |
| Nc1c(-c2c(Cl)cccc2Cl)[n+]([O-])c2ccccc2[n+]1[O-] | - | - | - | MIC | - | CS-R | 6.3 µg/mL |
| c1cc(CSc2ncn[nH]2)ccn1 | - | - | - | MIC | - | My 331/88 | 1000 µM |
| CCOC(=O)c1cc(-c2ccc(OCc3c(Cl)cccc3Cl)cc2)sc1NC(=O)C(=O)O | - | - | - | EC50 | resazurin | H37Rv | 31.35 µM |
| CC(=O)c1ccc(N2CCN(C(=O)c3cscn3)CC2)cc1 | - | - | - | MIC50 | turbidity | Wild type without biotin | >50 µM |
| Cc1ccc(N2C(=O)CS/C2=N/NC(=O)c2cc(-c3cc(F)cc(F)c3)ccc2O)cc1 | - | 6.25 µg/mL | - | inhibition | BACTEC | H37Rv | <90% |
| NC(=S)c1cc(SCc2ccccn2)ccn1 | - | - | - | MIC | - | My 331/88 | 250 µM |
| O=C(c1cccc(Cl)c1)N1CCN(c2ccc([N+](=O)[O-])cc2)CC1 | - | - | - | MIC90 | turbidity | Wild type without biotin | 34.1 µM |
| CCOC(=O)c1cc(-c2ccc(Cl)cc2)n(CC(=O)N/N=C/c2ccc(O)c(OCC)c2)c1C | - | 6.25 µg/mL | - | inhibition | resazurin | H37Rv (ATCC 27294) | 55% |
| COc1cccc(/C=N/NC(=O)c2c(-c3ccccc3)noc2C)c1O | - | 12.5 µg/mL | - | inhibition | BACTEC | H37Rv | 28% |
| CC1CN(c2c(F)cc3c(=O)c(C(=O)O)cn(C4CC4)c3c2F)CCN1 | - | - | - | MIC | - | CSU27 | ≤0.125 µg/mL |
| OCCOCn1cc(Cn2ncc3c(NCc4ccccc4)ncnc32)nn1 | - | - | - | EC50 | BACTEC | H37Rv | >12.5 µg/mL |
| CC(C)CNc1sc(-c2ccc(OCc3c(Cl)cccc3Cl)cc2)cc1C(=O)O | - | - | - | EC50 | resazurin | H37Rv | 34.5 µM |
| CC(=O)c1ccc(N2CCN(C(=O)c3ccc(Cl)c(Cl)c3)CC2)cc1 | - | - | - | MIC90 | turbidity | Wild type without biotin | >50 µM |
| NNC(=O)c1ccncc1 | - | - | - | MIC | - | CSU26 | ≤0.125 µg/mL |
| COC1O[C@@H]2COC(c3ccccc3)O[C@H]2[C@@H]2O[C@H]12 | - | 6.25 µg/mL | - | inhibition | BACTEC | H37Rv | 0% |
| CCCCCCCCS(=O)(=O)c1ccc2c(c1)C(=O)c1nc3c(OC)cccc3c(=O)n1-2 | - | - | - | MIC | - | H37Rv | >8 µg/mL |
| CC(C)(C)OC(=O)C#CC[C@H]1CCC[C@@H]1/C=C/C(O)=C1/C(=O)NC(CCCNC(=O)OC(C)(C)C)C1=O | - | 6.25 µg/mL | - | inhibition | resazurin | H37Rv | 22% |
| c1ccc2[nH]c(SCc3ccncc3)nc2c1 | - | - | - | MIC | - | My 331/88 | 250 µM |
| O=C(NC1CONC1=O)c1cccc(C(F)(F)F)c1 | - | - | - | MIC | - | 13PI | 50 µg/mL |
| OCCOCn1nncc1Cn1ncc2c(SCc3ccccc3)ncnc21 | - | - | - | EC50 | BACTEC | H37Rv | >12.5 µg/mL |
| CC(=O)O[C@H]1C[C@@]2(C)[C@@H](C[C@@H](O)[C@H]3[C@@]4(C)CC[C@@H](O)[C@@H](C)[C@@H]4CC[C@@]32C)/C1=C(\CCC=C(C)C)C(=O)O | - | - | - | MIC90 | - | 151 strains (drug-susceptible) | ≤16 µg/mL |
| Cc1noc(-c2ccc(N3CCN(C(=O)c4cccc(Cl)c4)CC3)cc2)n1 | - | - | - | MIC50 | turbidity | BioA overexpression strain | >50 µM |
| CCOC(=O)c1ccc2c(c1)C(=O)c1nc3c(OC)cccc3c(=O)n1-2 | - | - | - | MIC | - | H37Rv | 0.06 µg/mL |
| c1ccc(CSc2ncn[nH]2)nc1 | - | - | - | MIC | - | My 331/88 | 1000 µM |
| CN1C(=O)CS/C1=N/NC(=O)c1cc(-c2cc(F)cc(F)c2)ccc1O | - | 6.25 µg/mL | - | inhibition | BACTEC | H37Rv | <90% |
| CCn1cc(C(=O)O)c(=O)c2cc(F)c(N3CCNCC3)cc21 | - | - | - | MIC | - | 10 strains | ≤8 µg/mL |
| COc1cccc2c(=O)n3c(nc12)C(=O)c1cc(F)ccc1-3 | - | - | - | MIC | - | H37Rv | 0.06 µg/mL |
| NNC(=O)c1ccccn1 | - | - | VERO | MIC | BACTEC | H37Rv | 1.56 µg/mL |
| Cc1nc2ccccc2c2nc3cc(Cl)c(Cl)cc3n12 | - | - | - | MIC99 | resazurin | H37Rv | 6.25 µg/mL |
| COC(=O)C1c2cc3c(cc2C(OC2OC(C)C(OC)C(C)(OC)C2OC)CC1(C)O)C(=O)c1c(O)cc2c(c1C3=O)OC1OC2(C)C(O)C([N+](C)(C)[O-])C1O | - | - | - | MIC bound | BACTEC | H37Rv | ≤12.8 µg/mL |
| C[C@@H]1CN(c2c(F)c(N)c3c(=O)c(C(=O)O)cn(C4CC4)c3c2F)C[C@H](C)N1 | - | - | - | MIC | - | CSU25 | ≤0.125 µg/mL |
| CC(=O)N[C@H]1[C@H]([C@H](O)[C@H](O)CO)O[C@](O)(C(=O)O)C[C@@H]1O | - | - | - | MIC bound | BACTEC | H37Rv | >12.8 µg/mL |
| COC(=O)c1ccc(N2CCN(C(=O)c3cccc(Cl)c3)CC2)cc1 | - | - | - | MIC50 | turbidity | BioA overexpression strain | >50 µM |
| C#CCn1ncc2c(SCc3ccccc3)ncnc21 | - | 12.5 µM | - | inhibition | BACTEC | H37Rv | >90% |
| CCCOc1ccc(NC(=S)NCCC(=O)O)cc1 | - | - | - | MIC | - | H37Rv | 1.3 µg/mL |
| Cc1ccc2nc(SCc3ccncc3)[nH]c2c1 | - | - | - | MIC | - | My 331/88 | 250 µM |
| COc1ncnc2c1cnn2Cc1cn(COCCO)nn1 | - | 6.25 µg/mL | - | inhibition | BACTEC | H37Rv | 57% |
| CCOC(=O)c1cc(-c2ccc(Cl)cc2)n(C(C)C(=O)N=Nc2c(O)[nH]c3ccccc23)c1C | - | 6.25 µg/mL | - | inhibition | resazurin | H37Rv (ATCC 27294) | 60% |
| CCC(C)Oc1ccc(N2C(=O)CCNC2=S)cc1 | - | - | - | MIC | - | H37Rv | 5 µg/mL |
| C/C=C1/C(=O)O[C@]23C=C[C@@H]4C(C(=O)OC)=CO[C@H](O[C@@H]12)[C@@H]43 | - | - | - | MIC | MTT | H37Rv | 2.1 µg/mL |
| CCc1nc2ccc(C)cc2c2nc3ccccc3n12 | - | - | - | MIC99 | resazurin | H37Rv | 25 µg/mL |
| O=C(NC1CONC1=O)c1ccc(F)cc1 | - | - | - | MIC | - | 13PI | 12.5 µg/mL |
| CNC(=S)NNC(=O)c1cc(-c2cc(F)cc(F)c2)ccc1O | - | 6.25 µg/mL | - | inhibition | BACTEC | H37Rv | <90% |
| c1ccc2c(CSc3nc4ccccc4s3)cccc2c1 | - | - | - | MIC | - | My 331/88 | >500 µM |
| CCCCCCCCc1ccc2c(c1)C(=O)c1nc3ccncc3c(=O)n1-2 | - | - | - | MIC | - | TN1195RFLF:N2 (MDR) | 0.03 µg/mL |
| CO[C@H]1/C=C/O[C@@]2(C)Oc3c(C)c(O)c4c(O)c(c(/C=N/N5CCN(C)CC5)c(O)c4c3C2=O)NC(=O)/C(C)=C\C=C\[C@H](C)[C@H](O)[C@@H](C)[C@@H](O)[C@@H](C)[C@H](OC(C)=O)[C@@H]1C | INH resistant | - | - | MIC99 | resazurin | H37Rv | 0.24 µg/mL |
| O=C(CN=C(CN(c1ccccc1)c1ccccc1)Oc1c(Cl)cc(Cl)cc1Cl)N1c2ccccc2Sc2ccccc21 | - | 12.5 µg/mL | - | inhibition | BACTEC | H37Rv | 86% |
| CCOC(=O)c1cc(-c2ccc(Cl)cc2)n(CCC(=O)N/N=C/c2ccc(NC(C)=O)cc2)c1C | - | 6.25 µg/mL | - | inhibition | resazurin | H37Rv (ATCC 27294) | 50% |
| NC(=O)c1n[nH]c(=S)[nH]c1=O | - | - | - | MIC bound | BACTEC | H37Rv | >12.5 µg/mL |
| CC(=O)O[C@@]12CO[C@@H]1C[C@H](O)[C@@]1(C)C(=O)[C@H](OC(=O)N(C)C)C3=C(C)[C@@H](OC(=O)/C=C/c4ccc5ccccc5c4)C[C@@](O)([C@@H](OC(=O)c4ccccc4)[C@H]21)C3(C)C | - | - | - | MIC | PCR | H37Rv | 2.5 µM |
| CCCCCCCCc1ccc2c(c1)C(=O)c1nc3c(OC)cccc3c(=O)n1-2 | - | - | - | MIC | - | H37Rv | 0.5 µg/mL |
| OCCOCn1nncc1Cn1ncc2c(NCc3ccccc3)ncnc21 | - | 6.25 µg/mL | - | inhibition | BACTEC | H37Rv | 11% |
| CCOC(=O)c1c(C)[nH]c(/C=N/NC(=O)Cn2c(C)c(C(=O)OCC)c(C)c2-c2ccc(Cl)cc2)c1C | - | 6.25 µg/mL | - | inhibition | resazurin | H37Rv (ATCC 27294) | 97% |
| Cc1ccc(-c2cnnc(N3CCC(c4ccccc4)C3)n2)o1 | - | - | - | MIC | - | H37Rv | 54.7 µM |
| COc1ccc(CCN2C(=O)C(=O)N(c3ccc(Cl)c(Cl)c3)C2=O)cc1OC | - | - | - | MIC | BACTEC | H37Rv | 12.5 µg/mL |
| C#CCn1ncc2c(SC)ncnc21 | - | 12.5 µg/mL | - | inhibition | BACTEC | H37Rv | 90% |
| O=C(NN1C(=O)CSC1c1ccccc1F)c1cc(-c2cc(F)cc(F)c2)ccc1O | - | 6.25 µg/mL | - | inhibition | BACTEC | H37Rv | <90% |
| CCOC(=O)[C@H]1O[C@@H]([C@@]2(C)O[C@]3(O[C@]4(C=C[C@H]3O)O[C@H]([C@@H](C)C(=O)[C@@H](C)[C@@H](O)[C@H](C)C[C@H](C)c3c(Cl)cc(C)c(O)c3C(=O)O)[C@@H](C)C[C@H]4C)[C@H](C)[C@H]2OC)C[C@H]1O | - | - | - | MIC | BACTEC | H37Rv | 6.25 µg/mL |
| O=C(O)CCNC(=S)NC1CCCCC1 | - | - | - | MIC | - | H37Rv | 2.5 µg/mL |
| COC(c1ccc2c(c1)C(=O)c1nc3ccncc3c(=O)n1-2)C(C)C | - | - | - | MIC | - | H37Rv | 0.06 µg/mL |
| Cc1ccc(NC(=O)CNC2CCCCC2)cc1Cl | - | - | - | MIC bound | BACTEC | H37Rv | >12.5 µg/mL |
| CC(=O)c1ccc(N2CCN(C(=O)c3cc(Cl)cc(Cl)c3)CC2)cc1 | - | - | - | MIC50 | turbidity | BioA underexpression strain | >50 µM |
| COc1cc(-c2nnc3n2NC=C(C(=O)O)S3)cc(OC)c1OC | - | 12.5 µg/mL | - | inhibition | BACTEC | H37Rv | 2% |
| COc1ccc(N2C(=O)CS/C2=N/NC(=O)c2cc(-c3cc(F)cc(F)c3)ccc2O)cc1 | - | 6.25 µg/mL | - | inhibition | BACTEC | H37Rv | <90% |